# Data: paper PMC7587441, “Plasmodium falciparum Apicomplexan-Specific Glucosamine-6-Phosphate N-Acetyltransferase Is Key for Amino Sugar Metabolism and Asexual Blood Stage Development” (mBio, 2020)
# System: CC(=O)SCCNC(=O)CCNC(=O)[C@H](O)C(C)(C)COP(=O)(O)OP(=O)(O)OC[C@H]1O[C@@H](n2cnc3c(N)ncnc32)[C@H](O)[C@@H]1OP(=O)(O)O
# Assay: purified protein
# Conditions: 2000 μM GlcN6P fixed, 25 mM Tris-HCl, 150 mM NaCl, pH 7.2, room temperature
row,Substance,Km
1,CpGNA1 (Cryptosporidium parvum Iowa II; H81A),88.9 ± 10.98 µM
2,CpGNA1 (Cryptosporidium parvum Iowa II; T117A),33.41 ± 11.82 µM
3,CpGNA1 (Cryptosporidium parvum Iowa II; I122G),309.2 ± 54.94 µM
4,CpGNA1 (Cryptosporidium parvum Iowa II; E119A),170.4 ± 25.06 µM
5,CpGNA1 (Cryptosporidium parvum Iowa II; N90A),252.4 ± 44.43 µM
